Anti-infective test results gathered from many reports (values: NIAID ChemDB through PubChem).

Common to all: whole-cell or culture tests; organism: Mycobacterium avium complex

An empty or dashed field is not shown. a–b is a range or a potency band. MIC50, MIC90 and the like: level of inhibition, or share of isolates inhibited. Conditions beyond the fields shown may differ between rows. ECn is the concentration giving n% inhibition of infection, replication or growth. Inhibition is in % at the dose shown (toxicity tests: loss of growth or viability).

structure	strain or isolate	read by	dose	read-out	result
CN(C)S(=O)(=O)n1cnc2c(=S)nc[nH]c21	-	resazurin	-	EC50	>12.5 µM
NC1CCN(c2nc3c(cc2F)c(=O)c(C(=O)O)cn3-c2ccc(F)cc2F)C1	ATCC 35718	-	-	MBC	>8 µg/mL
O=C(O)c1cn(C2CC2)c2c(F)c(N3CCC(NC4CC4)C3)c(F)cc2c1=O	-	-	-	MIC50	1 µg/mL
CO[C@H]1/C=C/O[C@@]2(C)Oc3c(C)c(O)c4c(O)c(c(/C=N/N5CCN(C/C=C/c6ccccc6)CC5)c(O)c4c3C2=O)NC(=O)/C(C)=C\C=C\[C@H](C)[C@H](O)[C@@H](C)[C@@H](O)[C@@H](C)[C@H](OC(C)=O)[C@@H]1C	5718	-	-	MBC	2 µg/mL
CC[C@@H](CO)NCCN[C@@H](CC)CO	168-4	-	-	MBC	30 µg/mL
CC1CN(c2cc3c(cc2F)c(=O)c(C(=O)O)cn3C(C)C)CC(C)N1	14 strains	-	-	MIC90	16 µg/mL
CN[C@@H]1[C@@H](O)[C@@H](O[C@@H]2[C@@H](O)[C@H](O[C@H]3O[C@H](CN)CC[C@H]3N)[C@@H](N)C[C@H]2N)OC[C@]1(C)O	25 isolates	-	-	MBC90	>64 µg/mL
O=C(O)c1cn(C2CC2)c2c(F)c(N3CCNCC3)c(F)cc2c1=O	-	-	-	MIC50	1 µg/mL
CC[C@@H](CO)NCCN[C@@H](CC)CO	14 strains	-	5 µg/mL	inhibition	0%
CN[C@@H]1[C@H](O)[C@H](NC)[C@H]2O[C@@]3(O)C(=O)C[C@@H](C)O[C@H]3O[C@@H]2[C@H]1O	ATCC 35718	-	-	MBC	>64 µg/mL
NC[C@H]1O[C@H](O[C@H]2[C@H](O)[C@@H](O[C@H]3O[C@H](CO)[C@@H](O)[C@H](N)[C@H]3O)[C@H](N)C[C@@H]2N)[C@H](O)[C@@H](O)[C@@H]1O	Isolate C-50	-	-	MIC	25 µg/mL
O=C(O)c1cn(C2CC2)c2c(F)c(N3CCS(=O)(=O)CC3)c(F)cc2c1=O	-	-	-	MIC50	2 µg/mL
CO[C@H]1/C=C/O[C@@]2(C)Oc3c(C)c(O)c4c(O)c(c(/C=N/N5CCN(C)CC5)c(O)c4c3C2=O)NC(=O)/C(C)=C\C=C\[C@H](C)[C@H](O)[C@@H](C)[C@@H](O)[C@@H](C)[C@H](OC(C)=O)[C@@H]1C	13016 (serotype 4)	-	-	MIC	0.4 µg/mL
O=[N+]([O-])[O][Ga]([O][N+](=O)[O-])[O][N+](=O)[O-]	1	-	500 µM	inhibition	90%
CC1COc2c(N3CCN(C)CC3)c(F)cc3c(=O)c(C(=O)O)cn1c23	-	-	-	MIC50	2–16 µg/mL
CC(C)CN1CCN(c2cc3c(cc2F)c(=O)c(C(=O)O)cn3C(C)(C)C)CC1	14 strains	-	-	MIC90	16 µg/mL
CO[C@H]1/C=C/O[C@@]2(C)Oc3c(C)c(O)c4c(O)c(c(/C=N/N5CCN(C)CC5)c(O)c4c3C2=O)NC(=O)/C(C)=C\C=C\[C@H](C)[C@H](O)[C@@H](C)[C@@H](O)[C@@H](C)[C@H](OC(C)=O)[C@@H]1C	10 isolates (HIV+)	-	-	MIC50	1 µg/mL
COc1c(N2CCN(C(C)C)CC2)c(F)cc2c(=O)c(C(=O)O)cn(C3CC3)c12	14 strains	-	-	MIC50	2 µg/mL
NNC(=O)c1ccncc1	13887 (serotype 14)	-	-	MIC	0.8 µg/mL
C[C@@H]1CN(c2c(F)c(N)c3c(=O)c(C(=O)O)cn(C4CC4)c3c2F)C[C@H](C)N1	10	broth dilution	-	MIC	0.12 µg/mL
CC(C)N=c1cc2n(-c3ccc(Cl)cc3)c3ccccc3nc-2cc1Nc1ccc(Cl)cc1	SK47/HIV+	-	-	MIC	1 µg/mL
NC(=O)c1cnccn1	101	-	-	MBC	>64 µg/mL
CN[C@@H]1[C@@H](O)[C@@H](O[C@@H]2[C@@H](O)[C@H](O[C@H]3O[C@H](CN)CC[C@H]3N)[C@@H](N)C[C@H]2N)OC[C@]1(C)O	31 strains	broth dilution	-	EC50	>8 µg/mL
CCn1cc(C(=O)O)c(=O)c2cc(F)c(N3CCC(CNCCO)C3)c(F)c21	-	-	-	MIC50	16 µg/mL
CCN1CCN(c2cc3c(cc2F)c(=O)c(C(=O)O)cn3C2CC2)CC1	14 strains	-	-	MIC90	4 µg/mL
NCC[C@H](O)C(=O)N[C@@H]1C[C@H](N)[C@@H](O[C@H]2O[C@H](CN)[C@@H](O)[C@H](O)[C@H]2O)[C@H](O)[C@H]1O[C@H]1O[C@H](CO)[C@@H](O)[C@H](N)[C@H]1O	101	-	-	MBC	2 µg/mL
CCn1cc(C(=O)O)c(=O)c2cc(F)c(N3CCNCC3)cc21	-	-	-	MIC50	16 µg/mL
CC[C@@H](CO)NCCN[C@@H](CC)CO	189-4	-	-	MIC	1.9 µg/mL
Nc1ccc(C(=O)O)c(O)c1	713 strains	agar	2 µg/mL	inhibition	4%
CC(C)N1CCN(c2nc3c(cc2F)c(=O)c(C(=O)O)cn3C2CC2)CC1	14 strains	-	-	MIC50	4 µg/mL
CO[C@H]1/C=C/O[C@@]2(C)Oc3c(C)c(O)c4c(O)c(c5c(c4c3C2=O)NC2(CCN(CC(C)C)CC2)N=5)=NC(=O)/C(C)=C\C=C\[C@H](C)[C@H](O)[C@@H](C)[C@@H](O)[C@@H](C)[C@H](OC(C)=O)[C@@H]1C	9141	-	-	MBC	16 µg/mL

A second listing of 4 rows from above:

| structure | strain or isolate | read by | dose | read-out | result |
|---|---|---|---|---|---|
| CC(C)N1CCN(c2nc3c(cc2F)c(=O)c(C(=O)O)cn3C2CC2)CC1 | 14 strains | - | - | MIC50 | 4 µg/mL |
| CC[C@@H](CO)NCCN[C@@H](CC)CO | 168-4 | - | - | MBC | 30 µg/mL |
| Nc1ccc(C(=O)O)c(O)c1 | 713 strains | agar | 2 µg/mL | inhibition | 4% |
| O=C(O)c1cn(C2CC2)c2c(F)c(N3CCC(NC4CC4)C3)c(F)cc2c1=O | - | - | - | MIC50 | 1 µg/mL |